Anti-infective test results gathered from many reports (values: NIAID ChemDB through PubChem).

Common to all: whole-cell or culture tests

Lines come from different laboratories, so protocols vary. An empty or dashed field is not shown. Percent inhibition refers to the dose given; in toxicity tests it is the harm to the cells. ECn: concentration that inhibits the pathogen or its effect by n%. a–b is a range or a potency band.

{"smiles": "CC(C)[Si]1(C(C)C)OC[C@H]2O[C@@H](n3cnc4cc(Cl)c(Cl)cc43)[C@H](O)[C@H]2O[Si](C(C)C)(C(C)C)O1", "organism": "Poliovirus", "cell line": "HeLa", "strain": "TYPE 1", "endpoint": "EC50", "value": ">10 µg/mL"}
{"smiles": "CC(N)C12CC3CC(CC(C3)C1)C2", "organism": "Influenza A virus", "cell line": "MDCK", "strain": "H2N2 A/Singapore/1/57", "endpoint": "EC50", "value": "0.45 µM"}
{"smiles": "NC(=O)c1ncn([C@@H]2O[C@H](CO)[C@@H](O)[C@H]2O)n1", "organism": "Venezuelan equine encephalitis virus", "cell line": "VERO", "endpoint": "EC50", "value": ">250 µM"}
{"smiles": "Nc1nccc2c1ncn2[C@@]12OCOC1[C@H](O)[C@@H](CO)O2", "organism": "Junin virus", "cell line": "VERO", "strain": "XJCL3", "endpoint": "EC50", "value": "1.1 µg/mL"}
{"smiles": "OC[C@H]1O[C@H](n2cnc3cc(Cl)c(Cl)cc32)[C@@H](O)[C@H]1O", "organism": "Poliovirus", "cell line": "HeLa", "strain": "TYPE 1", "endpoint": "EC50", "value": ">200 µg/mL"}
{"smiles": "NC(=O)c1ncn([C@@H]2O[C@H](CO)[C@@H](O)[C@H]2O)n1", "organism": "Yellow fever virus", "cell line": "VERO", "endpoint": "EC50", "value": "32 µg/mL"}
{"smiles": "O=c1cnn([C@@H]2O[C@H](CO)[C@@H](O)[C@H]2O)c(=O)[nH]1", "organism": "Yellow fever virus", "cell line": "VERO", "strain": "17D", "endpoint": "EC90", "value": "1.3 µg/mL"}
{"smiles": "NC1CC2CC1C1CCCC21", "organism": "Influenza A virus", "cell line": "MDCK", "strain": "H2N2 A/Singapore/1/57", "dose": "1 µg/mL", "endpoint": "inhibition", "value": "100%"}
{"smiles": "Nc1ccn(C[C@@H](CO)OCP(=O)(O)O)c(=O)n1", "organism": "Variola virus", "cell line": "VERO", "endpoint": "EC50", "value": "6 µM"}
{"smiles": "Nc1nccc2c1ncn2[C@@H]1C=C[C@@H](O)[C@H]1O", "organism": "Poliovirus", "cell line": "HeLa", "strain": "TYPE 1", "endpoint": "EC50", "value": ">400 µg/mL"}
{"smiles": "CC1C2CCCC([C@@H]2N)[C@]2(O)CCCCC12", "organism": "Influenza A virus", "cell line": "MDCK", "strain": "H2N2 A/Singapore/1/57", "dose": "4 µg/mL", "endpoint": "inhibition", "value": "100%"}
{"smiles": "O=c1[nH]c(=O)n([C@H]2C[C@H](O)[C@@H](CO)O2)cc1F", "organism": "Vaccinia virus", "cell line": "PRK", "endpoint": "EC50", "value": "0.1 µg/mL"}
{"smiles": "O=C1Nc2nc[nH]c2C(=O)N(Cc2ccccc2)N1", "organism": "Japanese encephalitis virus", "cell line": "HepG2.2.15", "endpoint": "EC50", "value": ">500 µM"}
{"smiles": "COc1cc(NC(=O)Nc2cccc(CNC(=O)O[C@H]3CCOC3)c2)ccc1-c1cnco1", "organism": "Yellow fever virus", "cell line": "VERO", "endpoint": "EC50", "value": ">31 µM"}
{"smiles": "CO[C@@H]1[C@H](O)[C@@H](CO)OC[C@H]1n1cnc(C(C)=O)n1", "organism": "Yellow fever virus", "endpoint": "EC50", "value": "64 µg/mL"}
{"smiles": "OC[C@H]1O[C@@H](n2cnc3cc(Cl)c(Cl)cc32)[C@@H](O)[C@@H]1O", "organism": "Poliovirus", "cell line": "HeLa", "strain": "TYPE 1", "endpoint": "EC50", "value": ">10 µg/mL"}
{"smiles": "[NH3+]CCC12CC3CC(C1)CC(c1ccccc1)(C3)C2", "organism": "Influenza A virus", "cell line": "MDCK", "strain": "H2N2 A/Singapore/1/57", "dose": "4 µg/mL", "endpoint": "inhibition", "value": "100%"}
{"smiles": "NC(=O)c1ncn([C@H]2C=C[C@@H](CO)O2)n1", "organism": "Rift valley fever virus", "endpoint": "EC50", "value": "61 µg/mL"}
{"smiles": "CCCCCCCCCCCCCCCCOCCCOP1(=O)CO[C@@H](Cn2ccc(N)nc2=O)CO1", "organism": "Vaccinia virus", "cell line": "HFF", "strain": "WR", "endpoint": "EC50", "value": "5.8 µM"}
{"smiles": "c1ccc(N=Nc2ccccc2)cc1", "organism": "Junin virus", "cell line": "VERO", "endpoint": "EC50", "value": "19.7 µM"}
{"smiles": "OC[C@H]1O[C@@H](n2cnc3cc(Cl)c(Cl)cc32)[C@@H](O)[C@H]1O", "organism": "Poliovirus", "cell line": "HeLa", "strain": "TYPE 1", "endpoint": "EC50", "value": ">100 µg/mL"}
{"smiles": "Nc1ncnc2c1ncn2C[C@@H](CO)OCP(=O)(O)O", "organism": "Camelpox virus", "cell line": "VERO 76", "strain": "Somalia wild type", "endpoint": "EC50", "value": "0.5 µM"}
{"smiles": "Nc1ccn([C@H]2CC[C@@H](CO)O2)c(=O)n1", "organism": "Vaccinia virus", "cell line": "VERO", "endpoint": "EC50", "value": ">474 µM"}
{"smiles": "NC(=O)c1csc([C@@H]2O[C@H](CO)[C@@H](O)[C@H]2O)n1", "organism": "Yellow fever virus", "cell line": "VERO", "strain": "Asibi", "endpoint": "EC50", "value": "9.2 µg/mL"}
{"smiles": "CC1=CC2O[C@H]3C[C@H]4OC(=O)/C=C\\C=C\\[C@H](C(C)O)OCC/C(C)=C/C(=O)OCC2(CC1)[C@@]4(C)[C@]31CO1", "organism": "Junin virus", "cell line": "VERO", "endpoint": "EC50", "value": "0.0031 µg/mL"}
{"smiles": "CCCCCCCCCCCCCCNc1nc(=O)c2ncn([C@@H]3O[C@H](CO)[C@@H](O)[C@H]3O)c2c(=O)[nH]1", "organism": "Japanese encephalitis virus", "cell line": "HepG2.2.15", "endpoint": "EC50", "value": "10–15 µM"}
{"smiles": "CO[C@H]1O[C@H](CO)[C@@H](O)[C@@H](OC)[C@@H]1n1cnc(C(C)=O)n1", "organism": "Yellow fever virus", "endpoint": "EC50", "value": ">64 µg/mL"}
{"smiles": "Nc1ccn(C[C@H]2COP(=O)(O)CO2)c(=O)n1", "organism": "Cowpox virus", "cell line": "HFF", "strain": "Brighton", "endpoint": "EC50", "value": "48.3 µM"}
{"smiles": "O=c1cnn([C@@H]2O[C@H](CO)[C@@H](O)[C@H]2O)c(=O)[nH]1", "organism": "Cowpox virus", "cell line": "VERO 76", "endpoint": "EC50", "value": "6.9 µM"}
{"smiles": "Nc1ncnc2c1ncn2C[C@@H](CO)OCP(=O)(O)O", "organism": "Vaccinia virus", "cell line": "PRK", "endpoint": "EC50", "value": "0.3–0.7 µg/mL"}
{"smiles": "Nc1nccc2c1ncn2[C@@H]1C=C(CO)[C@@H](O)[C@H]1O", "organism": "Poliovirus", "cell line": "HeLa", "strain": "TYPE 1", "endpoint": "EC50", "value": ">400 µg/mL"}
{"smiles": "Nc1nccc2c1ncn2[C@@H]1CC[C@@H](O)[C@H]1O", "organism": "Vaccinia virus", "cell line": "L929", "endpoint": "EC50", "value": "0.03 µg/mL"}
{"smiles": "NCCC12CC3CC(CC(N)(C3)C1)C2", "organism": "Influenza A virus", "cell line": "MDCK", "strain": "H2N2 A/Singapore/1/57", "dose": "1 µg/mL", "endpoint": "inhibition", "value": "100%"}
{"smiles": "CCCCCCCCCCCCNc1nc(=O)c2ncn(Cc3ccc(OC)cc3)c2c(=O)[nH]1", "organism": "Japanese encephalitis virus", "cell line": "HepG2.2.15", "endpoint": "EC50", "value": ">500 µM"}
{"smiles": "Nc1ncnc2c1ncn2[C@@H]1C=C(CO)[C@@H](O)[C@H]1O", "organism": "Junin virus", "cell line": "VERO", "strain": "XJCL3", "endpoint": "EC50", "value": "0.3 µg/mL"}
{"smiles": "Nc1ncnc2c1ncn2[C@H]1C[C@H](O)[C@@H](COP([O-])(=S)O[C@H]2C[C@H](n3ccc(=O)[nH]c3=O)O[C@@H]2CO)O1", "organism": "Yellow fever virus", "endpoint": "EC50", "value": ">50 µM"}
{"smiles": "NC(=O)c1ncn([C@H]2CC[C@@H](CO)O2)n1", "organism": "Rift valley fever virus", "endpoint": "EC50", "value": "101 µg/mL"}
{"smiles": "N#Cc1cn([C@H]2C[C@H](O)[C@@H](CO)O2)c(=O)[nH]c1=O", "organism": "Vaccinia virus", "cell line": "PRK", "endpoint": "EC50", "value": "4 µg/mL"}
{"smiles": "Nc1ccn(C[C@@H](CO)OCP(=O)(O)O)c(=O)n1", "organism": "Vaccinia virus", "cell line": "VERO", "endpoint": "EC50", "value": "30 µM"}
{"smiles": "NC(=O)c1ncn([C@@H]2O[C@H](CO)[C@@H](O)[C@H]2O)n1", "organism": "Junin virus", "cell line": "VERO", "strain": "XJCL3", "endpoint": "EC50", "value": "1 µg/mL"}
{"smiles": "CC1=CC2O[C@H]3C[C@H]4OC(=O)/C=C\\C=C\\C(=O)OCC/C(C)=C/C(=O)OCC2(CC1)[C@@]4(C)[C@]31CO1", "organism": "Junin virus", "cell line": "VERO", "endpoint": "EC50", "value": "0.0012 µg/mL"}
{"smiles": "O=Nc1ccc2ccccc2c1N=Nc1ccccc1C(=O)O", "organism": "Junin virus", "cell line": "VERO", "endpoint": "EC50", "value": "6.5 µM"}
{"smiles": "CCCCCCCCCCCCCCCCOCCCOP(=O)(O)CO[C@H](CO)Cn1ccc(N)nc1=O", "organism": "Vaccinia virus", "cell line": "HFF", "strain": "IHD", "endpoint": "EC50", "value": "0.2 µM"}
{"smiles": "Nc1ccn(C[C@H]2COP(=O)(O)CO2)c(=O)n1", "organism": "Camelpox virus", "cell line": "VERO 76", "strain": "Somalia wild type", "endpoint": "EC50", "value": "2.2 µM"}
{"smiles": "Nc1nc(F)nc2c1ncn2[C@@H]1C=C(CCO)[C@@H](O)[C@H]1O", "organism": "Vaccinia virus", "cell line": "E6SM", "endpoint": "EC50", "value": "0.1 µg/mL"}
{"smiles": "Nc1nc2c(ncn2COCCO)c(=O)[nH]1", "organism": "Cowpox virus", "cell line": "VERO", "endpoint": "EC50", "value": ">444 µM"}
{"smiles": "C[C@H]1C[C@@H](n2cnc3c(N)ncnc32)[C@H](O)[C@@H]1O", "organism": "Junin virus", "cell line": "VERO", "endpoint": "EC50", "value": "10 µg/mL"}
{"smiles": "N=C(N)c1ncn([C@@H]2O[C@H](CO)[C@@H](O)[C@H]2O)n1", "organism": "Influenza A virus", "cell line": "MDCK", "strain": "H5N1 A/duck/MN/1525/81", "endpoint": "EC50", "value": "18 µg/mL"}
{"smiles": "CN(C)C12CC3CC(CC(C3)C1)C2", "organism": "Influenza A virus", "cell line": "MDCK", "strain": "H2N2 A/Singapore/1/57", "dose": "0.5 µg/mL", "endpoint": "inhibition", "value": "100%"}
{"smiles": "Nc1nccc2c1ncn2[C@@H]1O[C@H](CO)[C@@H](O)[C@H]1O", "organism": "Vaccinia virus", "cell line": "PRK", "endpoint": "EC50", "value": "7 µg/mL"}
{"smiles": "NC12CC3CC(CC(C3)C1)C2", "organism": "Influenza A virus", "cell line": "MDCK", "strain": "H2N2 Kaizuka/2/65", "endpoint": "EC50", "value": "0.15 µg/mL"}
{"smiles": "Nc1ccn(C[C@H]2COP(=O)(O)CO2)c(=O)n1", "organism": "Monkeypox virus", "cell line": "3T3", "endpoint": "EC50", "value": "19 µM"}
{"smiles": "[NH3+]CCCC12CC3CC(CC(C3)C1)C2", "organism": "Influenza A virus", "cell line": "MDCK", "strain": "H2N2 A/Singapore/1/57", "dose": "0.5 µg/mL", "endpoint": "inhibition", "value": "100%"}
{"smiles": "CCCCCCCCCCCCNc1nc(=O)c2ncn([C@H]3C[C@H](O)[C@@H](CO)O3)c2c(=O)[nH]1", "organism": "Japanese encephalitis virus", "cell line": "HepG2.2.15", "endpoint": "EC50", "value": "5–10 µM"}
{"smiles": "Nc1ccn([C@@H]2C=C(CO)[C@@H](O)[C@H]2O)c(=O)n1", "organism": "Vaccinia virus", "cell line": "VERO", "endpoint": "EC50", "value": "0.1 µg/mL"}
{"smiles": "Nc1nccc2c1ncn2[C@@H]1C[C@H](CO)[C@@H](O)[C@H]1O", "organism": "Junin virus", "cell line": "VERO", "strain": "XJCL3", "endpoint": "EC50", "value": "1.2 µg/mL"}
{"smiles": "CCCCCCCCCCN1[C@H](CN)[C@@H](O)[C@H](O)[C@H]1CO", "organism": "Japanese encephalitis virus", "endpoint": "EC50", "value": ">10 µM"}
{"smiles": "C#Cc1cn([C@H]2C[C@H](O)[C@@H](CO)O2)c(=O)[nH]c1=O", "organism": "Vaccinia virus", "cell line": "PRK", "endpoint": "EC50", "value": "0.2 µg/mL"}
{"smiles": "CNC12CC3(C)CC(C)(CC(C)(C3)C1)C2", "organism": "Influenza A virus", "cell line": "MDCK", "strain": "H2N2 A/Singapore/1/57", "dose": "10 µg/mL", "endpoint": "inhibition", "value": "100%"}
{"smiles": "NC(=O)c1ncn([C@@H]2O[C@H](CO)[C@@H](O)[C@H]2O)n1", "organism": "Venezuelan equine encephalitis virus", "cell line": "VERO 76", "strain": "Trinidad donkey", "endpoint": "EC50", "value": "25 µg/mL"}
{"smiles": "Nc1nccc2c1ncn2[C@@H]1C=C(CO)[C@@H](O)[C@H]1O", "organism": "Junin virus", "cell line": "VERO", "strain": "XJCL3", "endpoint": "EC50", "value": "1.2 µg/mL"}

Repeating the final 8 entries:

smiles	organism	cell line	strain	dose	endpoint	value
CCCCCCCCCCCCNc1nc(=O)c2ncn([C@H]3C[C@H](O)[C@@H](CO)O3)c2c(=O)[nH]1	Japanese encephalitis virus	HepG2.2.15	-	-	EC50	5–10 µM
Nc1ccn([C@@H]2C=C(CO)[C@@H](O)[C@H]2O)c(=O)n1	Vaccinia virus	VERO	-	-	EC50	0.1 µg/mL
Nc1nccc2c1ncn2[C@@H]1C[C@H](CO)[C@@H](O)[C@H]1O	Junin virus	VERO	XJCL3	-	EC50	1.2 µg/mL
CCCCCCCCCCN1[C@H](CN)[C@@H](O)[C@H](O)[C@H]1CO	Japanese encephalitis virus	-	-	-	EC50	>10 µM
C#Cc1cn([C@H]2C[C@H](O)[C@@H](CO)O2)c(=O)[nH]c1=O	Vaccinia virus	PRK	-	-	EC50	0.2 µg/mL
CNC12CC3(C)CC(C)(CC(C)(C3)C1)C2	Influenza A virus	MDCK	H2N2 A/Singapore/1/57	10 µg/mL	inhibition	100%
NC(=O)c1ncn([C@@H]2O[C@H](CO)[C@@H](O)[C@H]2O)n1	Venezuelan equine encephalitis virus	VERO 76	Trinidad donkey	-	EC50	25 µg/mL
Nc1nccc2c1ncn2[C@@H]1C=C(CO)[C@@H](O)[C@H]1O	Junin virus	VERO	XJCL3	-	EC50	1.2 µg/mL